Experiments:
[1] = system: CV-A16 190-D1 strain; assay: CPE protection assay, CV-A16; assay type: cell-based, coxsackievirus A16; settings: CV-A16 190-D1, RD; ratio of CC50 to EC50
[2] = system: CV-B3 Nancy strain; assay: CPE protection assay, CV-B3; assay type: cell-based, Coxsackievirus B3; settings: RD, ratio of CC50 to EC50
[3] = system: EV-A71 AH08/06 strain; assay: CPE protection assay, EV-A71 clinical isolate AH08/06; assay type: cell-based, enterovirus A71; settings: EV-A71 AH08/06, Huh7; ratio of CC50 to EC50
[4] = system: EV-A71 H strain; assay: CPE protection assay, EV-A71 H strain (CellTiter-Glo); assay type: cell-based, enterovirus A71; settings: CC50/EC50

Question: What does the source list for `O=c1[nH]c(=NO)ccn1[C@@H]1O[C@H](CO)[C@@H](O)[C@H]1O` [EIDD-1931, β-D-N^4-hydroxycytidine]?
Answer: SI [1]: 19.43; SI [2]: 3.85; SI [3]: 12.22; select index (SI) ([4]; Huh7 cells): 7.69; select index (SI) ([4]; RD cells): 15.69; select index (SI) ([4]; Vero cells): 2.0

Question: Which results are given for `CC(C)C(=O)OC[C@H]1O[C@@H](n2ccc(NO)nc2=O)[C@H](O)[C@@H]1O` [EIDD-2801, molnupiravir]?
Answer: SI [1]: >2.23; SI [2]: >1.15; SI [3]: > 3.3; select index (SI) ([4]; Huh7 cells): > 2.81; select index (SI) ([4]; RD cells): > 1.43; select index (SI) ([4]; Vero cells): > 1.13

From publication PMC9227765 (Viruses, 2022)
